Common to all, as to test: ELISA on recombinant or purified HA
(In an ELISA, binding on a coated surface is turned into a signal by an enzyme label.)

Assay [1] addresses HA of H3N2 A/Wyoming/3/03 (influenza A virus H3N2 A/Wyoming/3/03).
Assay [2] concerns the target HA of H3N2 A/New York/55/04 (influenza A virus H3N2 A/New York/55/04).
The target in assay [3] is HA of H3N2 A/Brisbane/10/07 (influenza A virus H3N2 A/Brisbane/10/07).

The text below walks through data of patent US20170204167A1 (INSTITUTE FOR RESEARCH IN BIOMEDICINE, published 2017).

B1: FI6 variant 3 (antibody, V domains shown)
VH: QVQLVESGGGVVQPGRSLRLSCAASGFTFSTYAMHWVRQAPGKGLEWVAVISYDANYKYYADSVKGRFTISRDNSKNTLYLQMNSLRAEDTAVYYCAKDSQLRSLLYFEWLSQGYFDYWGQGTLVTVSS
VL: DIVMTQSPDSLAVSLGERATINCKSSQSVTFNYKNYLAWYQQKPGQPPKLLIYWASTRESGVPDRFSGSGSGTDFTLTISSLQAEDVAVYYCQQHYRTPPTFGQGTKVEIK
One may read the EC50 as the concentration that produces a half-maximal response. Regarding B1, the EC50 in assay [1] came out at 0.023 µg/mL; in assay [2], 0.038 µg/mL; in assay [3], 0.037 µg/mL.
